Measurements reported in PubChem BioAssay AID504761 (Drosophila RNAi Screening Center, 2011)

Aim: 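Fly genes whose silencing reduces dengue virus type 2 infection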 (primary screen)
Cells: D.Mel-2 cells from Drosophila
Reagents: long dsRNA against Drosophila genes
Conditions: infection with dengue virus type 2; dose and infection time not stated
Read-out: 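Cells stained for dengue envelope protein and imaged; percent of infected cells per well on duplicate plates, ranked by infection, with stained nuclei counted for cell number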
Direction: infection score: higher = more virus-infected cells; cell count: higher = more cells in the well
Active means: 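Very low infection ranking in both replicate wells (chance probability at most 0.065), then a retest showing infection dropped 1.5-fold or more at p below 0.05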
Meaning of the calls: active = confirmed: knock-down lowers infection; inactive = not picked or not confirmed
In all, the deposit lists about 22,000 reagents; shown is a random part of those that have a named target and a result. In the full data, 116 (0.52%) are marked active. 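Calls depend on retest data that are not deposited; infection was ranked per plate without normalising between plates; the unit of the infection score is not given.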 The raw values are shown without normalisation. Unmarked entries are inactive. Not given: the amount of reagent, the time to read-out.

gene | DRSC id | infection score, replicate 1 | infection score, replicate 2 | cell count, replicate 1 | cell count, replicate 2
mah | DRSC14645 | 8.55 | 4.67 | 5741 | 1177
mah | DRSC28300 | 5.08 | 13.3 | 2283 | 1664
l(3)76BDm | DRSC11047 | 4.08 | 10.4 | 7079 | 5522
ics | DRSC01878 | 20.3 | 14.2 | 5695 | 6630
ics | DRSC29655 | 9.88 | 14.7 | 3704 | 5146
CalpC | DRSC19873 | 5.19 | 3.75 | 6437 | 6889
Rpt2 | DRSC16799 | 9.69 | 4.33 | 1114 | 1315
Rpt2 | DRSC25012 | 1.61 | 1.7 | 1548 | 1827
l(2)37Bb | DRSC02088 | 6.21 | 5.45 | 6103 | 6336
eEF1beta | DRSC07419 | 5.29 | 5.84 | 6879 | 6725
eEF1beta | DRSC24367 | 4.52 | 2.8 | 6321 | 6285
CG30001 | DRSC05191 | 1.39 | 4.23 | 5918 | 5207
Ncc69 | DRSC10412 | 10.3 | 3.1 | 6365 | 6507
Ncc69 | DRSC10413 | 11.4 | 3.33 | 6232 | 6610
Ncc69 | DRSC23572 | 2.1 | 10.6 | 7152 | 6441
CtsB | DRSC19361 | 9.9 | 12.6 | 7171 | 7059
Nf-YA | DRSC23126 | 1.26 | 2.23 | 7000 | 7278
CG15641 | DRSC19677 | 0.71 | 1.77 | 6466 | 6612
Nup37 | DRSC14419 | 9.97 | 1.08 | 6017 | 6734
Gr59f | DRSC04499 | 9.71 | 4.66 | 6127 | 6649
Gr59f | DRSC27044 | 9.39 | 4.08 | 6484 | 6723
CG9626 | DRSC16525 | 3.59 | 3.27 | 6350 | 6370
CG9626 | DRSC27021 | 10.3 | 2.6 | 4870 | 6149
CG42613 | DRSC13332 | 7.4 | 5 | 5409 | 4843
CG42613 | DRSC14769 | 6.75 | 3.37 | 5929 | 6193
CG42613 | DRSC15802 | 3.47 | 2.46 | 6504 | 6148
CG42613 | DRSC25089 | 3.38 | 5.83 | 6720 | 6625
Spt-I | DRSC06860 | 8.99 | 13.9 | 6619 | 6539
Spt-I | DRSC26069 | 12.5 | 4.78 | 3430 | 6417
mTor | DRSC02811 | 6.29 | 4.27 | 6537 | 7279
Lmx1a | DRSC09726 | 5.41 | 10.8 | 6689 | 6727
Lmx1a | DRSC26224 | 9.78 | 9.39 | 5317 | 5966
CG18599 | DRSC23121 | 2.17 | 2.73 | 6345 | 6658
CG18599 | DRSC25823 | 18.7 | 6.69 | 5152 | 5847
AkhR | DRSC03329 | 1.75 | 7.69 | 5781 | 5135
AkhR | DRSC28694 | 21 | 9.57 | 5645 | 3573
CG16756 | DRSC18115 | 1.45 | 1.2 | 6542 | 6596
Theg | DRSC16023 | 1.23 | 2.05 | 6687 | 6232
CG4483 | DRSC10426 | 6.22 | 5.38 | 6448 | 6337

4 entries from above, set out differently:
| gene | DRSC id | infection score, replicate 1 | infection score, replicate 2 | cell count, replicate 1 | cell count, replicate 2 |
| --- | --- | --- | --- | --- | --- |
| ics | DRSC29655 | 9.88 | 14.7 | 3704 | 5146 |
| CalpC | DRSC19873 | 5.19 | 3.75 | 6437 | 6889 |
| Rpt2 | DRSC16799 | 9.69 | 4.33 | 1114 | 1315 |
| Rpt2 | DRSC25012 | 1.61 | 1.7 | 1548 | 1827 |
